“And” between values parts separate entries of the source, which are not always exact repeats. Equal entries are not always repeated.
Columns and labels:
[1] = system: mouse fetal muscle nAChR (m(α1)2β1δγ); conditions: read-out: IC50 on mouse fetal muscle nAChR (m(α1)2β1δγ); acetylcholine-induced response; cited from earlier work
[2] = system: mouse adult muscle nAChR (m(α1)2β1δε); conditions: read-out: IC50 on mouse adult muscle nAChR (m(α1)2β1δε); acetylcholine-induced response; cited from earlier work
human Kv11.1 = conditions: 15 μM; first five minutes of washing
human Kv1.6 = human Kv1.6 (Homo sapiens, UniProt P17658); conditions: 15 μM; washings longer than sixty minutes
hα7 nAChR = conditions: read-out: IC50 on hα7 nAChR; acetylcholine-induced response; cited from earlier work
human Kv1.3 = human Kv1.3 (Homo sapiens, UniProt P22001); conditions: 15 μM; washings longer than sixty minutes
hα4β2 nAChR = conditions: read-out: IC50 on hα4β2 nAChR; acetylcholine-induced response; cited from earlier work
hα3β2 nAChR = conditions: read-out: IC50 on hα3β2 nAChR; acetylcholine-induced response; cited from earlier work
[3] = 15 μM αD-FrXXA, TEVC, pulses to +10 mV from −80 mV, mean ± S.E.M., n ≥ 3
[4] = 15 μM, first five minutes of washing

The chains behind the UniProt entries cited, without tags or fusion partners.
UniProt P17658, whole entry, looked up: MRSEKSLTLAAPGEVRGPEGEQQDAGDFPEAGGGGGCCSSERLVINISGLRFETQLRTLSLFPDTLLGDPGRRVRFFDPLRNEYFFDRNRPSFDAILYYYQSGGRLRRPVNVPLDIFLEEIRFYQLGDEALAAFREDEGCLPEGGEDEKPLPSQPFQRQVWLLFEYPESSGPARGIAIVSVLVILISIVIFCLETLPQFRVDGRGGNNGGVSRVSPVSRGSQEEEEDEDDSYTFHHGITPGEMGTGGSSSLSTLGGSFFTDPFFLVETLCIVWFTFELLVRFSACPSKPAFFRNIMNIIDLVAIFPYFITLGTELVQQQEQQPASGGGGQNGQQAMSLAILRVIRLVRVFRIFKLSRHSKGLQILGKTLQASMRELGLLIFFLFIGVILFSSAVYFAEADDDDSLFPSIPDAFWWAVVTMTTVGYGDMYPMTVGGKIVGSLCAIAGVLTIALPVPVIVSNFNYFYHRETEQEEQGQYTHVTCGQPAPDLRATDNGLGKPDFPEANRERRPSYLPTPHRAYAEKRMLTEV
UniProt P22001, whole entry, looked up: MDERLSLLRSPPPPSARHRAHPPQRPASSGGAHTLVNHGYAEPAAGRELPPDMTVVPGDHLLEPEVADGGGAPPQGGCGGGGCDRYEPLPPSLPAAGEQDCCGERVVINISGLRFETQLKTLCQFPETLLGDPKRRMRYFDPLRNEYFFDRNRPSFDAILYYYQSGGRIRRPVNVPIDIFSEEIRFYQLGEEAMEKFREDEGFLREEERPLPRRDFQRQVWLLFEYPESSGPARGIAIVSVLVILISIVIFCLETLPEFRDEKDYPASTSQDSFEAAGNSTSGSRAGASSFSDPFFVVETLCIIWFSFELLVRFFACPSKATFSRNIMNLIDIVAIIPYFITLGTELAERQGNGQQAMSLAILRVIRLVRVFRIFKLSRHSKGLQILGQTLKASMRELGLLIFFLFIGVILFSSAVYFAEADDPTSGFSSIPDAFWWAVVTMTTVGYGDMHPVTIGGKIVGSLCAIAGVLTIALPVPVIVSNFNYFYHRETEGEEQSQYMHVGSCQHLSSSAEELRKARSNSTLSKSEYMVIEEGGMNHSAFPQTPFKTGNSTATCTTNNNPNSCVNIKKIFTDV

In the case of `CC[C@H](C)[C@H](NC(=O)[C@H](CCCNC(=N)N)NC(=O)[C@H](C)NC(=O)[C@@H](N)CCC(=O)O)C(=O)N[C@H](C(=O)N[C@H]1CSSC[C@@H](C(=O)N[C@H]2CSSC[C@@H]3NC(=O)[C@H](Cc4ccc(O)cc4)NC(=O)[C@H](CC(N)=O)NC(=O)CNC(=O)[C@H](CSSC[C@@H]4NC(=O)[C@H](CCCNC(=N)N)NC(=O)[C@@H]5CSSC[C@@H](C(=O)O)NC(=O)[C@H](CO)NC(=O)[C@H](CSSC[C@H](NC3=O)C(=O)N[C@@H](Cc3ccc(O)cc3)C(=O)N[C@@H](CCCCN)C(=O)N[C@@H](Cc3c[nH]cn3)C(=O)NCC(=O)N5)NC(=O)CNC(=O)[C@H](Cc3c[nH]cn3)NC(=O)CNC(=O)[C@H](CCCNC(=N)N)NC(=O)[C@H](Cc3c[nH]c5ccccc35)NC(=O)[C@H](CO)NC(=O)[C@H](Cc3c[nH]cn3)NC(=O)[C@H](Cc3ccc(O)cc3)NC(=O)[C@H](C(C)C)NC4=O)NC(=O)[C@H](CCSC)NC(=O)[C@H](CCC(N)=O)NC(=O)[C@H]([C@@H](C)O)NC(=O)[C@H](CC(C)C)NC2=O)NC(=O)[C@H](CCCNC(=N)N)NC(=O)CNC(=O)[C@H](Cc2c[nH]c3ccccc23)NC(=O)[C@H](CCCCN)NC(=O)[C@H](CO)NC(=O)[C@H](CCCNC(=N)N)NC(=O)CNC(=O)[C@H](CCCNC(=N)N)NC(=O)[C@@H]2CCCN2C(=O)[C@H](CCC(N)=O)NC(=O)[C@@H](NC(=O)[C@@H](NC(=O)[C@@H](NC(=O)[C@H](CCCNC(=N)N)NC(=O)[C@H](C)NC(=O)[C@@H](N)CCC(=O)O)[C@@H](C)CC)[C@@H](C)O)CSSC[C@@H](C(=O)N[C@H]2CSSC[C@@H]3NC(=O)[C@H](Cc4ccc(O)cc4)NC(=O)[C@H](CC(N)=O)NC(=O)CNC(=O)[C@H](CSSC[C@@H]4NC(=O)[C@H](CCCNC(=N)N)NC(=O)[C@@H]5CSSC[C@@H](C(=O)O)NC(=O)[C@H](CO)NC(=O)[C@H](CSSC[C@H](NC3=O)C(=O)N[C@@H](Cc3ccc(O)cc3)C(=O)N[C@@H](CCCCN)C(=O)N[C@@H](Cc3c[nH]cn3)C(=O)NCC(=O)N5)NC(=O)CNC(=O)[C@H](Cc3c[nH]cn3)NC(=O)CNC(=O)[C@H](CCCNC(=N)N)NC(=O)[C@H](Cc3c[nH]c5ccccc35)NC(=O)[C@H](CO)NC(=O)[C@H](Cc3c[nH]cn3)NC(=O)[C@H](Cc3ccc(O)cc3)NC(=O)[C@H](C(C)C)NC4=O)NC(=O)[C@H](CCSC)NC(=O)[C@H](CCC(N)=O)NC(=O)[C@H]([C@@H](C)O)NC(=O)[C@H](CC(C)C)NC2=O)NC(=O)[C@H](CCCNC(=N)N)NC(=O)CNC(=O)[C@H](Cc2c[nH]c3ccccc23)NC(=O)[C@H](CCCCN)NC(=O)[C@H](CO)NC(=O)[C@H](CCCNC(=N)N)NC(=O)CNC(=O)[C@H](CCCNC(=N)N)NC(=O)[C@@H]2CCCN2C(=O)[C@H](CCC(N)=O)NC1=O)[C@@H](C)O`, the “Current Inhibition (%) Kv1.5” value (human Kv1.5; [3]) is listed as 56.23 ± 3.68% and ≈ 50%, the “Reversibility of the effect on washing, Kv1.5” value (human Kv1.5; [4]) is listed as “completely reversible” and the IC50 [1] is listed as 447 nM. For the same compound, the IC50 [2] was 351 nM, the “Reversibility of the effect on washing, Kv11.1” value (human Kv11.1) was “completely reversible” and the “Reversibility of the effect on washing, Kv1.6” value (human Kv1.6) was “irreversible”. The “Current Inhibition (%) Kv10.1” value (human Kv10.1; [3]) was 17.88 ± 1.28% and < 20%, the “Reversibility of the effect on washing, Kv10.1” value (human Kv10.1; [4]) was “completely reversible” and the IC50 (hα7 nAChR) was 125 nM. The “Reversibility of the effect on washing, Kv1.3” value (human Kv1.3) was “irreversible”, the “Current Inhibition (%) Kv1.4” value (human Kv1.4; [3]) was 50.62 ± 8.00% and ≈ 50% and the “Reversibility of the effect on washing, Kv1.4” value (human Kv1.4; 15 μM, washings longer than sixty minutes) was “irreversible”. The IC50 (hα4β2 nAChR) was 697 nM and the IC50 (hα3β2 nAChR) was 282 nM.
